This assay addresses Ca Channel (Type N) (Rattus norvegicus, UniProt Q02294). It is filed as binding.

Chains of the proteins cited; added tags and fusions are not shown.
UniProt Q02294, whole entry: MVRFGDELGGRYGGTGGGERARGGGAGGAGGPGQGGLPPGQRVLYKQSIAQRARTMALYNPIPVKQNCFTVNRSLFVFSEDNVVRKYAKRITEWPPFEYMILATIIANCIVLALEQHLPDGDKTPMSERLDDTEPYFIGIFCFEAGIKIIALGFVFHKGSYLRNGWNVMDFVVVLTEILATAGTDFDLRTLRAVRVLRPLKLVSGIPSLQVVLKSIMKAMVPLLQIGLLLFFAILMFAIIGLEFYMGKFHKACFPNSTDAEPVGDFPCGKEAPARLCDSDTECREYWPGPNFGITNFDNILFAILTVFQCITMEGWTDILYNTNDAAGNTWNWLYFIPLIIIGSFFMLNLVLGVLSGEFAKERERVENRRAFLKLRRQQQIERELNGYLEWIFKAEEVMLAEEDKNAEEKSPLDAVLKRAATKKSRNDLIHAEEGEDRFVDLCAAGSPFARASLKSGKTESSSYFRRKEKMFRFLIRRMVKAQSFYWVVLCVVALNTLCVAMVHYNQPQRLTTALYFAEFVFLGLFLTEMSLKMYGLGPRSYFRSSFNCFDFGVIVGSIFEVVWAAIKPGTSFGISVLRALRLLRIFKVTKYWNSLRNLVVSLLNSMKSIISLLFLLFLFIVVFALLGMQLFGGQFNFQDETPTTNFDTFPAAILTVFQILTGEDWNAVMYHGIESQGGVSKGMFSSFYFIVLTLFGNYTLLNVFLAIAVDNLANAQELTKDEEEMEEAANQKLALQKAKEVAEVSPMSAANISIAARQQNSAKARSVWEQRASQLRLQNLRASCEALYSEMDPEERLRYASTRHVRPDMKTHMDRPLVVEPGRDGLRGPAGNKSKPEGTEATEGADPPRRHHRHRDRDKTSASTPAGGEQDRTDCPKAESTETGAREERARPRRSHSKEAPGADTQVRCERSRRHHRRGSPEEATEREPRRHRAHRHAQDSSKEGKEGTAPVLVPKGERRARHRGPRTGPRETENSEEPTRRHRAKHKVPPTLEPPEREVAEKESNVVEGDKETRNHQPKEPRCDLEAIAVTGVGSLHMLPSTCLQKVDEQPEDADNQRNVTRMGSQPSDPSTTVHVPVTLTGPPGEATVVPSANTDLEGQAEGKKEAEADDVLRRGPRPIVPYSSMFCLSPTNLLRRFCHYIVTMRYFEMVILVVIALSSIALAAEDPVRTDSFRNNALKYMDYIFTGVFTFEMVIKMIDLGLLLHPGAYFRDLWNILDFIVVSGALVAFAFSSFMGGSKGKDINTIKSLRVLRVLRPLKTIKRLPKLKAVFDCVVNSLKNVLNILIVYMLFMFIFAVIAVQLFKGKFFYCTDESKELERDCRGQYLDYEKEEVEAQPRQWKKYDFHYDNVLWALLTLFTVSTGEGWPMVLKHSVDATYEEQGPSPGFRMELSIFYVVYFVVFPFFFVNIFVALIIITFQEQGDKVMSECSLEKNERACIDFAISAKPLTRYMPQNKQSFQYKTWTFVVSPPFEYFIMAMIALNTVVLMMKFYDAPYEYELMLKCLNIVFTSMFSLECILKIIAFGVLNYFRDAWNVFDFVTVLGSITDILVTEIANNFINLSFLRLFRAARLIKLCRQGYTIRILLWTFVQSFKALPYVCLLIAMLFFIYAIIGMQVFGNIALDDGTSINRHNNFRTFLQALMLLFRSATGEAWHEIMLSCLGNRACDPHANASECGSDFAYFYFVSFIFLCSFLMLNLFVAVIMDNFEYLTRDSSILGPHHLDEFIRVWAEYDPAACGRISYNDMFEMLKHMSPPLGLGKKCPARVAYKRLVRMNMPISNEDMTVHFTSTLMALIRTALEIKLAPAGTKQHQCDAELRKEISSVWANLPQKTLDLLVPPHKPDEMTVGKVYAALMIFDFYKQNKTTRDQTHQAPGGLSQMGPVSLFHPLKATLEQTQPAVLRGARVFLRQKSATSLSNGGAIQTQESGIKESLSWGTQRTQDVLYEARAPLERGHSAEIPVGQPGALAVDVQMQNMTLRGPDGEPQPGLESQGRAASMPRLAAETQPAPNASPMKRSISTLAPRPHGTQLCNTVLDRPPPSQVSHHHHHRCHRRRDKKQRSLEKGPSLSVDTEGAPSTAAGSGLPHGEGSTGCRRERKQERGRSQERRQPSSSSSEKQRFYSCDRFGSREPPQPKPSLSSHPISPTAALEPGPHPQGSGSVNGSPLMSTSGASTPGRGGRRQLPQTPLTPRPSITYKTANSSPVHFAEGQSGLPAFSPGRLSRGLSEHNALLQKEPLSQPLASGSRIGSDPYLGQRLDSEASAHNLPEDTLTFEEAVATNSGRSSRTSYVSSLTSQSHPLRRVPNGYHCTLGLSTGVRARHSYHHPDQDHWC

Take ω-Conotoxin GVIA: the “Inhibition by a positive substance (%)” value was 100%.

The values above are taken from PMC8237303 (Heliyon, 2021).
